Measured values taken from paper PMC8625693, “Synthesis and Structure-Activity Relationships of New 2-Phenoxybenzamides with Antiplasmodial Activity” (Pharmaceuticals, 2021).
Several values for one entry are separate records, joined by “and”; a condition that tells them apart may be missing. Equal entries are not always repeated.

System: P. falciparum NF54
Assay: In vitro microplate assay against P. falciparum NF54 (3H-hypoxanthine incorporation, erythrocytic stages)
Type: cell-based, Plasmodium falciparum
Conditions: selectivity index, L-6 cells vs P.f. NF54
Experimental: All newly synthesized compounds were tested for their antiplasmodial activity against the chloroquine-sensitive strain Plasmodium falciparum NF54. Cytotoxicity was determined using rat skeletal myofibroblasts (L-6 cells). As standards chloroquine and podophyllotoxin were used.
In vitro activity against erythrocytic stages of P. falciparum was determined with a ^3H-hypoxanthine incorporation assay, using the chloroquine sensitive NF54 strain [44]. Chloroquine (Sigma C6628) was used as standard. Test compounds were dissolved in DMSO at 10 mg/mL and added to parasite cultures incubated in RPMI 1640 medium without hypoxanthine, supplemented with HEPES (5.94 g/L, NaHCO3 (2.1 g/L), neomycin (100 U/mL), Albumax (5 g/L) and washed human red blood cells A^+ at 2.5% hematocrit (0.3% parasitemia). Serial drug dilutions of 11 3-fold dilution steps (covering a range from 100–0.002 µg/mL) were prepared. The 96-well plates were incubated at a humidified atmosphere at 37 °C; 4% CO2, 3% O2, 93% N2. After 48 h, 0.05 mL of ^3H-hypoxanthine (=0.5 µCi) was added to each well. The plates were incubated for another 24 h under the same conditions. Then, the plates were harvested with a Betaplate cell harvester (Wallac, Zurich, Switzerland). The red blood cells were transferred onto glass fiber filter and washed with distilled water. The dried filters were inserted into a plastic foil with 10 mL of scintillation fluid and counted in a Betaplate liquid scintillation counter. IC50 values were determined from sigmoidal inhibition curves by linear regression using Microsoft Excel. Chloroquine was used as control.

Compound | S.I. = IC50 (Cyt.)/IC50 (P.f. NF54)
CC(C)(C)OC(=O)Nc1ccccc1NC(=O)c1cccc(C(F)(F)F)c1Oc1ccc(F)cc1 [Compound 13, tert-Butyl-N-{2-[2-(4-fluorophenoxy)-3-(trifluoromethyl)benzamido]phenyl}carbamate] | 9.043
O=CN1CCN(c2ccccc2NC(=O)c2cccc(C(F)(F)F)c2Oc2ccc(F)cc2)CC1 [Compound 18, 2-(4-Fluorophenoxy)-N-[2-(4-formylpiperazin-1-yl)phenyl]-3-(trifluoromethyl)benzamide] | 4.829
CC(C)(C)C(=O)N1CCN(c2cccc(NC(=O)c3cccc(C(F)(F)F)c3Oc3ccc(F)cc3)c2)CC1 [Compound 38, N-{3-[4-(2,2-Dimethylpropanoyl)piperazin-1-yl]phenyl}-2-(4-fluorophenoxy)-3-(trifluoromethyl)benzamide] | 24.61
CC(C)(C)OC(=O)N1CCN(c2ccc(NC(=O)c3cccc(C(F)(F)F)c3Oc3ccccc3)cc2)CC1 [Compound 54, tert-Butyl-4-{4-[2-phenoxy-3-(trifluoromethyl)benzamido]phenyl}piperazine-1-carboxylate] | 151.4
Nc1cccc(NC(=O)c2cccc(C(F)(F)F)c2Oc2ccc(F)cc2)c1 [Compound 50, N-(3-Aminophenyl)-2-(4-fluorophenoxy)-3-(trifluoromethyl)benzamide] | 2.026
CC(C)(C)OC(=O)N1CCN(c2ccccc2NC(=O)c2cccc(C(F)(F)F)c2Oc2ccccc2)CC1 [Compound 6, tert-Butyl-4-{2-[2-phenoxy-3-(trifluoromethyl)benzamido]phenyl}piperazine-1-carboxylate] | 127.1
CC(C)(C)C(=O)N1CCN(c2ccc(NC(=O)c3cccc(C(F)(F)F)c3Oc3ccccc3)cc2)CC1 [Compound 55, N-{4-[4-(2,2-Dimethylpropanoyl)piperazin-1-yl]phenyl}-2-phenoxy-3-(trifluoromethyl)benzamide] | 19.27
CC(=O)N1CCN(c2ccccc2NC(=O)c2cccc(C(F)(F)F)c2Oc2ccc(F)cc2)CC1 [Compound 17, N-[2-(4-Acetylpiperazin-1-yl)phenyl]-2-(4-fluorophenoxy)-3-(trifluoromethyl)benzamide] | 10.72
CC(C)(C)OC(=O)N1CCN(c2ccc(NC(=O)c3cccc(C(F)(F)F)c3Oc3ccc(F)cc3)cc2)CC1 [Compound 37, tert-Butyl-4-{4-[2-(4-fluorophenoxy)-3-(trifluoromethyl)benzamido]phenyl}piperazine-1-carboxylate] | 461.0
CC(C)(C)OC(=O)N1CCN(c2ccccc2NC(=O)c2cccc(C(F)(F)F)c2)CC1 [Compound 7, tert-Butyl-4-{2-[3-(trifluoromethyl)benzamido]phenyl}piperazine-1-carboxylate] | 30.22
CC(C)(C)OC(=O)N1CCN(c2cccc(NC(=O)c3cccc(C(F)(F)F)c3Oc3ccc(F)cc3)c2)CC1 [Compound 36, tert-Butyl-4-{3-[2-(4-fluorophenoxy)-3-(trifluoromethyl)benzamido]phenyl}piperazine-1-carboxylate] | 37.58
CC(C)(C)C(=O)N1CCN(c2ccccc2NC(=O)c2cccc(C(F)(F)F)c2Oc2ccc(F)cc2)CC1 [Compound 19, N-{2-[4-(2,2-Dimethylpropanoyl)piperazin-1-yl]phenyl}-2-(4-fluorophenoxy)-3-(trifluoromethyl)benzamide] | 299.7
CN(C)C(=O)N1CCN(c2ccccc2NC(=O)c2cccc(C(F)(F)F)c2Oc2ccc(F)cc2)CC1 [Compound 22, N-{2-[4-(N,N-Dimethylcarbamoyl)piperazin-1-yl]phenyl}-2-(4-fluorophenoxy)-3-(trifluoromethyl)benzamide] | 8.770
CC(C)(C)N1CCN(c2ccccc2NC(=O)c2cccc(C(F)(F)F)c2Oc2ccc(F)cc2)CC1 [Compound 20, 2-(4-Fluorophenoxy)-N-[2-(4-tert-butylpiperazin-1-yl)phenyl]-3-(trifluoromethyl)benzamide] | 12.01
CC(C)(C)C(=O)N1CCN(c2ccccc2NC(=O)c2cccc(C(F)(F)F)c2Oc2ccccc2)CC1 [Compound 56, N-{2-[4-(2,2-Dimethylpropanoyl)piperazin-1-yl]phenyl}-2-phenoxy-3-(trifluoromethyl)benzamide] | 288.6
Nc1ccc(NC(=O)c2cccc(C(F)(F)F)c2Oc2ccc(F)cc2)cc1 [Compound 51, N-(4-Aminophenyl)-2-(4-fluorophenoxy)-3-(trifluoromethyl)benzamide] | 2.328
CC(C)(C)C(=O)N1CCN(c2ccc(NC(=O)c3cccc(C(F)(F)F)c3Oc3ccc(F)cc3)cc2)CC1 [Compound 39, N-{4-[4-(2,2-Dimethylpropanoyl)piperazin-1-yl]phenyl}-2-(4-fluorophenoxy)-3-(trifluoromethyl)benzamide] | 171.8 and 171.9
O=C(Nc1ccccc1)c1cccc(C(F)(F)F)c1Oc1ccc(F)cc1 [Compound 12, 2-(4-Fluorophenoxy)-N-phenyl-3-(trifluoromethyl)benzamide] | 21.71
